Results of unrelated studies side by side (data: NIAID ChemDB).

All rows: whole-cell or culture tests; species: Herpes simplex virus 1; method: cytopathic effect; endpoint: EC50

ECn: concentration that inhibits the pathogen or its effect by n%. An empty or dashed field is not shown. Rows are shuffled and stem from different studies.

structure | strain | cell line | value
NC(=O)c1ncn([C@@H]2O[C@H](CO)[C@@H](O)[C@H]2O)n1 | KOS | PRK | >400 µg/mL
O=C(O)P(=O)(O)O | KOS | U373-MG | 58 µg/mL
Nc1nc2c(ncn2C[C@H]2CC[C@@H](CO)C2)c(=O)[nH]1 | B2006 (TK-) | E6SM | >400 µg/mL
Nc1ncnc2c1ncn2[C@@H]1C=C(CO)[C@@H](O)[C@H]1O | KOS | PRK | 4 µg/mL
O=C(O)c1cc(O)c(O)c(O)c1 | KOS | E6SM | 20 µg/mL
Nc1nc2c(ncn2CCC(CO)CO)c(=O)[nH]1 | PCV-resistant/A | HEL | >20 µg/mL
COc1ncnc(N2CC[N+]3(CC2)CC[N+]2(CCN(c4ncnc(OC)c4[N+](=O)[O-])CC2)CC3)c1[N+](=O)[O-] |  | GMK | 35.83 µg/mL
Nc1ncnc2c1c(Br)cn2[C@@H]1O[C@H](CO)[C@@H](O)[C@H]1O |  | PRK | 0.07 µg/mL
CSc1nc(Cl)c([N+](=O)[O-])c(N2CC[N+]3(CC2)CC[N+]2(CCN(c4nc(SC)nc(Cl)c4[N+](=O)[O-])CC2)CC3)n1 |  | GMK | 3.49 µg/mL
NC(=O)c1cn([C@H]2C[C@@H](O)[C@@H](CO)O2)c2ncnc(N)c12 | KOS | PRK | 70 µg/mL
Nc1nc(Cl)c2nnn(C[C@H]3CC[C@@H](CO)C3)c2n1 | B2006 (TK-) | E6SM | >200 µg/mL
CC(=O)O[C@H]1C[C@H](n2cc(C)c(=O)[nH]c2=O)O[C@@H]1COS(=O)(=O)NC(=O)O[C@H]1O[C@H](COC(=O)c2ccccc2)[C@@H](OC(=O)c2ccccc2)[C@H](OC(=O)c2ccccc2)[C@H]1OC(=O)c1ccccc1 |  |  | 70 µM
N#CCc1csc2ccccc12 | MCRAE | MRC-5 | 2.5 µg/mL
Nc1ncnc2c1ccn2[C@@H]1O[C@H](CO)[C@H](O)[C@H]1O | F | PRK | 0.2 µg/mL
NC(=O)c1ncn([C@@H]2O[C@H](CO)[C@@H](O)[C@H]2O)n1 | KOS | PRK | >400 µg/mL
Oc1ccccc1O |  | VERO | >512 µg/mL
Nc1ncnc2c1ccn2[C@@H]1O[C@H](CO)[C@@H](O)[C@H]1O | KOS | PRK | 0.1 µg/mL
O=C(NS(=O)(=O)OC[C@H]1O[C@@H](n2ccc(=O)[nH]c2=O)[C@H](O)[C@@H]1O)O[C@H]1O[C@H](COCc2ccccc2)[C@@H](OCc2ccccc2)[C@H](OCc2ccccc2)[C@H]1OCc1ccccc1 |  |  | 90 µM
Nc1ncnc2c1ncn2C[C@H](O)CO | McIntyre | PRK | >100 µg/mL
O=C(O)CP(=O)(O)O | ACV-resistant | HEL | 10 µg/mL
Oc1cccc(O)c1O | KOS | E6SM | 15 µg/mL
Nc1ncnc2c1c(Br)cn2[C@@H]1O[C@H](CO)[C@@H](O)[C@H]1O | KOS | PRK | ≥0.4 µg/mL
Nc1ncnc2c1ncn2C[C@@H](CO)OCP(=O)(O)O | KOS | U138-MG | 1.38 µg/mL
Nc1ncnc2c1ncn2C[C@@H](CO)OCP(=O)(O)O | PCV-resistant/A | HEL | 0.1 µg/mL
Nc1ncnc2c1ncn2C1CC(CO)[C@@H](O)[C@H]1O |  | PRK | 7 µg/mL
Nc1ccn(C[C@@H](CO)OCP(=O)(O)O)c(=O)n1 | PCV-resistant/A | HEL | 0.33 µg/mL
CCc1cn([C@H]2C[C@H](O)[C@@H](CO)S2)c(=O)[nH]c1=O | L2 acyclovir-susceptible | VERO | 1.1 µM
O=C(O)C1CSCN1 | KOS | HeLa | >200 µg/mL
O=[N+]([O-])c1c(Cl)ncnc1N1CC[N+]2(CC1)CC[N+]1(CCN(c3ncnc(Cl)c3[N+](=O)[O-])CC1)CC2 |  | GMK | 0.9 µg/mL
C/C=C\C(C)=C\[C@H](C)C(=O)C[C@H](O)CC1CC(=O)NC(=O)C1 | KOS | HeLa | 49 µM
O=c1[nH]cnc2c1ncn2[C@@H]1C=C(CO)[C@@H](O)[C@H]1O | KOS | PRK | >400 µg/mL
Cc1c(CC(=O)O)ccc(O)c1O | KOS | E6SM | 40 µg/mL
N[C@H]1[C@H](O)[C@@H](O)[C@@H](O[C@H]2O[C@H](CO)[C@@H](O)[C@H](O)[C@H]2O)O[C@@H]1CO | KOS | HeLa | >400 µg/mL
NC(=O)c1ncn([C@@H]2O[C@H](CO)[C@@H](O)[C@H]2O)c1C#CCCO | KOS | PRK | >400 µg/mL
O=C(O)Cc1cc(O)ccc1O | KOS | E6SM | 7 µg/mL
Nc1ncnc2c1ncn2[C@H]1[C@H](O)[C@H](O)[C@]2(CO)O[C@H]12 | KOS | PRK | 2 µg/mL
C[C@@H]1CC[C@H]2[C@@H](C)C(=O)O[C@@H]3OC4(C)CC[C@@H]1[C@]32OO4 | KOS | E6SM | >400 µg/mL
Nc1ncnc2c1ncn2C[C@@H](O)[C@H](O)C(=O)O |  | PRK | >400 µg/mL
CCC(N)C(O)C(O)C(C)C(=O)NC(CC(C)C)C1Cc2cccc(O)c2C(=O)O1 | KOS | HeLa | >100 µg/mL
C#Cc1c(C(N)=O)ncn1[C@@H]1O[C@H](CO)[C@@H](O)[C@H]1O | KOS | PRK | >400 µg/mL
C/C=C/C(=O)OC | KOS | HeLa | >200 µg/mL
Nc1nc(Cl)c2ncn(C[C@H]3CC[C@@H](CO)C3)c2n1 | KOS | E6SM | >1 µg/mL
O=c1[nH]cnc(N2CC[N+]3(CC2)CC[N+]2(CCN(c4nc[nH]c(=O)c4[N+](=O)[O-])CC2)CC3)c1[N+](=O)[O-] |  | GMK | 1.08 µg/mL
O=c1[nH]c(=O)n([C@H]2C[C@H](O)[C@@H](CO)O2)cc1/C=C/Br | VMW1837 (TK-) | E6SM | 70 µg/mL
C[C@H]1C[C@@H](n2cnc3c(N)ncnc32)[C@H](O)[C@@H]1O | B2006 (TK-) | E6SM | 10 µg/mL
NC(=O)c1ncn([C@@H]2O[C@H](CO)[C@@H](O)[C@H]2O)c1C#CCO | KOS | PRK | >400 µg/mL